Values of other authors, collected in patent publication US20190290621A1, “COMPOSITIONS AND METHODS FOR TREATING HIV-1 LATENCY” (priority 2017, published 2019).

Protein sequences, listed by entry. Tags and fused reporters are not part of them.
UniProt Q13547, whole entry: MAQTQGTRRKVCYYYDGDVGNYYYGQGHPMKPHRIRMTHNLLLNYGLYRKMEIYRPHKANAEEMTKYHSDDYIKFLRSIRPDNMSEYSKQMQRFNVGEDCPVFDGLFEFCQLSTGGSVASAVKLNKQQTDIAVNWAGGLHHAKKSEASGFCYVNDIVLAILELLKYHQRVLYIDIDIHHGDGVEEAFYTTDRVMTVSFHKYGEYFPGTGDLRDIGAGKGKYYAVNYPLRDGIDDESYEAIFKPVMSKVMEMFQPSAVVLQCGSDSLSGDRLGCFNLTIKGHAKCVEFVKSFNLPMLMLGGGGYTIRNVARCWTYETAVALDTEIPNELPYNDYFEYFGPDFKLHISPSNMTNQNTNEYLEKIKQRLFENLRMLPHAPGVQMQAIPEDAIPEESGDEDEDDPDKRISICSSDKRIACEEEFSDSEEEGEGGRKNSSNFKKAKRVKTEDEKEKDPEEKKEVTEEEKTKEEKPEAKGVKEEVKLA
UniProt Q92769, whole entry: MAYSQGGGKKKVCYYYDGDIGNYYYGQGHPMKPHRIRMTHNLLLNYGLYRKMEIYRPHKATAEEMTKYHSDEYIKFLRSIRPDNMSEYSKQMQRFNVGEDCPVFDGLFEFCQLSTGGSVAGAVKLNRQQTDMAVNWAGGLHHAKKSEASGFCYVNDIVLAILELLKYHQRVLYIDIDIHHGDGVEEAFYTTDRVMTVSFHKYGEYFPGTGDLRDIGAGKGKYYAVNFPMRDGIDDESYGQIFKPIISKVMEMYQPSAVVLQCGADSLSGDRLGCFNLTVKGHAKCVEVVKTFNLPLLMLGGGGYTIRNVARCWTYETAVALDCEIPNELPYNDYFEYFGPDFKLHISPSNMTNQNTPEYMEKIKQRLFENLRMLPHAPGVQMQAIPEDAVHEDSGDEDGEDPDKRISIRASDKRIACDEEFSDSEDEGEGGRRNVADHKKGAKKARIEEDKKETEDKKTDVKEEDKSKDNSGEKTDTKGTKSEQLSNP

Key:
[1] = target: HDAC1 (Homo sapiens, UniProt Q13547); settings: cited from earlier work
[2] = target: HDAC2 (Homo sapiens, UniProt Q92769); settings: cited from earlier work

**Q.** With largazole [SDL148] as the substance, how does the “potency against HDAC1” value [1] read?
**A.** picomolar range

**Q.** What about the “potency against HDAC2” value [2] of the same substance?
**A.** picomolar range
